Laboratory results reported in patent US11771694B2, “Arylamide compounds for treatment and prevention of viral infections” (priority 2020, dated 2023).

Assay: Serial passage assay for bacterial resistance
Conditions: compared to daptomycin

N=C(N)NCCCCC(=O)Nc1cc(C(F)(F)F)cc(NC(=O)c2cc(C(=O)Nc3cc(C(F)(F)F)cc(NC(=O)CCCCNC(=N)N)c3OC3CCNC3)ncn2)c1OC1CCNC1 (stereo not shown) [brilacidin]
risk for developing bacterial resistance: low risk for developing bacterial resistance
